Kd data for four substances are collected here from publication PMC10852988.

Assay in all cases: SPR
Details in all cases: domain or fragment

Assay [1] deals with S309.
The target of assay [2] is P2B-2F6.
Assay [3] addresses CB6.
Assay [4] addresses CR3022.

“nonglycosylated RBD 6 (RBD 319–537 with Met at the N-terminus) (from UniProt P0DTC2 319-537)” had a Kd in assay [1] of 3.57 nM. “RBD 4 (synthetic homogeneous RBD with asialo biantennary N-glycans at N331 and N343, without Tpep) (from UniProt P0DTC2 319-537)” registered a Kd in assay [2] of 72.7 nM. In other words, the double-digit nanomolar range. Take “RBD 2 (synthetic homogeneous RBD with asialo biantennary N-glycans at N331 and N343, linker GGG and Tpep) (from UniProt P0DTC2 319-537)”: the Kd in assay [3] was 45.9 nM; in assay [4], 27.9 nM.

The substance “RBD 1 (synthetic homogeneous RBD with sialylated biantennary N-glycans at N331 and N343, linker GGG and Tpep) (from UniProt P0DTC2 319-537)” showed a Kd in assay [3] of 66.5 nM. In other words, the double-digit nanomolar range.

The Kd is the free concentration of one partner at which half of the binding sites on the other are occupied at equilibrium, for simple one-to-one binding. A high value points to a looser complex.
